Measured values from EP0840781B1, “METHODS AND DEVICES FOR THE REMOVAL OF PSORALENS FROM BLOOD PRODUCTS” (Cerus Corporation, priority 1995, dated 1996).

What was measured:
[1] = system: GMP-140 expression on platelets; assay: GMP-140 (p-selectin) expression on platelets, CD62 antibody, flow cytometry; assay type: cell-based, human; conditions: 100 µM compound, 5 Joules/cm^2, 5 days storage (FIGS. 21C-24C)
Protocol: To measure the effects of the present compounds and methods of decontamination on platelet function using these four indicators, four samples were prepared for each compound tested, two control samples and two containing compound. […] These were each transferred under sterile conditions to 50 ml centrifuge tubes, then aliquots of each unit were transferred into a second set of 50 ml sterile centrifuge tubes. […] The samples were pipetted gently up and down to mix. […] Samples were treated in one of two different sized bags, having either 3 ml or 8 ml capacity. […] For each compound tested, two control samples without compound were prepared by again removing aliquots of platelet concentrate (17 ml if using an 8 ml bag, 4 ml if using a 3 ml bag) from the same one of the first set of 50 ml centrifuge tubes from which the compound sample was drawn, and dividing into Medibags, as before. […]

[2] = HPLC analysis of residual S-59 and photoproducts in PC after UVA and 8-hour treatment with RD containing Dowex XUS-43493; assay type: physicochemical; conditions: 150 µM S-59, 3 Joules/cm^2 UVA, RD (Dowex XUS-43493) for 8 hours
Protocol: Briefly, the assay involved an initial sample preparation which lyses the platelets and solubilizes the S-59 and photoproducts. The supernatant from the sample preparation was then analyzed on a C-18 reverse phase column with a gradient of increasing methanol in KH2PO4 buffer. The major peaks were detected by optical absorbance. […] Samples of the treated PC were then taken and subjected to HPLC for detection of residual S-59 and S-59 photoproducts. Post-incubation levels of photoproducts D, E, and F (S-59) are presented in Table N; photoproducts A, B, C, and G were not detectable by HPLC. Levels of residual photoproducts are average values taken from six independent, photochemically- and RD-treated platelet units. […] The PC was assayed for unbound photoproducts using the HPLC assay discussed above, which quantifies the photoproducts present both within the platelets and in the plasma/PAS III mixture. […] In addition to assaying the complete PC, samples were centrifuged to remove the platelets so that unbound photoproducts in the plasma/PAS III could be analyzed separately. […] To evaluate the efficacy of the RD for reducing the concentration of S-59. platelet samples from the test unit were analyzed for S-59 content by HPLC. […] The concentration of S-59 before and after UVA illumination and the reduction in the concentration of residual S-59 following RD treatment were measured by HPLC analysis. […]

[3] = system: platelets suspended in 35% plasma/65% PAS III; assay: Partitioning and distribution of S-59 in platelet concentrate before and after UVA (3H-S-59, HPLC); conditions: 150 µM, 35% plasma/[…]% PAS III, after UVA illumination
Excerpt: […] When designing a "capture" or "scrub" device for psoralen removal, an important consideration is the identification and quantification of the residual levels of low molecular weight photoproducts. Several properties of the platelet mixture (e.g., lipid content, platelet content, hemoglobin/RBC content) can affect the final partitioning of psoralen and the amount of each photoproduct that must be removed during the capture or scrub process.
Upon addition of S-59 to platelets, the S-59 rapidly partitions, establishing an equilibrium between S-59 in the plasma and S-59 within the platelets. […] In addition, higher percentages of S-59 will partition to the platelets if long incubation periods (e.g., greater than 60 minutes) occur between the addition of S-59 and illumination with UVA. The amount of S-59 which partitions to the platelets ultimately determines how much S-59 remains associated with platelets, how much is associated with plasma macromolecules, and how much remains as free photoproduct.
During the UVA illumination process, S-59 undergoes a photochemical reaction to form several low molecular weight photoproducts in addition to associating with macromolecules in both the platelet and the plasma fractions. […]
The S-59 which is not amenable to removal by the scrub/capture process can also be monitored using ^3H-labeled S-59. This non-removable fraction, which represents 27% of the original 150 µM S-59, is covalently associated with macromolecules (e.g., lipids) in the platelet and plasma fractions.
As discussed previously. S-59 uptake by platelets can occur over a period of several hours before saturation occurs. FIG. 25A graphically depicts S-59 (C0 = 50 µM) uptake by platelets over time (top) and S-59 release by platelets over time (bottom). As shown in the top graph, S-59 equilibrium is achieved at approximately two hours.

Cc1cc(=O)oc2c(C)c3oc(COCCN)c(C)c3cc12 [Compound 18, 5'-(4-amino-2-oxa)butyl-4,4',8-trimethylpsoralen]
GMP-140 expression, PCD sample versus day 5 untreated control (D5) [1]: a notable increase above the control

Cc1cc(=O)oc2c(C)c3oc(CNCCCCN)c(C)c3cc12 [Compound 17, 5'-(6-amino-2-aza)hexyl-4,4',8-trimethylpsoralen]
GMP-140 expression, PCD sample versus day 5 untreated control (D5) [1]: little or no difference

Cc1oc2c(C)c3oc(=O)cc(C)c3cc2c1COCCN [Compound 2, 4'-(4-amino-2-oxa)butyl-4,5',8-trimethylpsoralen]
concentration of residual S-59 after RD treatment ([2]; listed as S-59): ≤ 0.3 µM
concentration of residual S-59 after RD treatment ([2]; listed as S-S9): 0.27 ± 0.05 µM
non-removable fraction of original S-59, covalently associated with macromolecules [3]: 27%
original S-59 associated with plasma macromolecules [3]: approximately 15%
original S-59 associated with the platelets [3]: Approximately 20%
original S-59 in plasma as S-59 and low molecular weight photoproducts [3]: approximately 65%
original S-59 in platelets as S-59 and low molecular weight photoproducts [3]: 8-9%
original S-59 in platelets associated with macromolecules [3]: 11-12%
original S-59 that remains in the plasma [3]: approximately 80%
GMP-140 expression, PCD sample versus day 5 untreated control (D5) [1]: little or no difference

Cc1oc2c(C)c3oc(=O)cc(C)c3cc2c1CNCCCCN [Compound 6, 4'-(6-amino-2-aza)hexyl4,5',8-trimethylpsoralen]
GMP-140 expression, PCD sample versus day 5 untreated control (D5) [1]: little or no difference
